A mixed list of measured activities; the numbers were collected in NIAID ChemDB.

Common to all: growth or infection tests; agent: Mycobacterium tuberculosis

MIC bound: limit read from a one-dose screen. Blank or dashed fields: not listed here. Lines come from different laboratories, so protocols vary. A number after MIC or MFC names an inhibition level or a share of isolates. ECn is the concentration giving n% inhibition of infection, replication or growth. Percent inhibition refers to the dose given; in toxicity tests it is the harm to the cells.

structure	conditions	cell line	endpoint	read by	strain or isolate	mutations	dose	value
CCC(C)C1NC(=O)[C@H](CC(C)C)NC(=O)[C@H](Cc2c[nH]c3ccccc23)NC(=O)[C@@H](CCCN)NC(=O)[C@H](CC(N)=O)NC(=O)[C@H](C(C)C)NC1=O			MIC100	broth dilution / resazurin	H37Rv			>80 µM
O=C(N/N=C/c1cc2cc(F)ccc2[nH]c1=O)c1cccnc1			MIC	resazurin / visual reading	H37Rv			50 µg/mL
COc1ccc(-c2noc(C3=CC4(CCN(CC5CCCO5)CC4)c4ccccc43)n2)cc1			MIC	resazurin	H37Rv			0.3 µM
CO/N=C(\C)c1cccc(F)c1NS(=O)(=O)c1nc2c(F)cnc(OC)n2n1			MIC50	visual reading	X59	INH RIF resistant		1 µM
C/C(=N\NC(=S)N1CCN(C2CCCCC2)CC1)c1ccccn1			inhibition	BACTEC	H37Rv		12.5 µg/mL	99.7%
Cc1ccc(-c2noc(C3=CC4(CCN(CC5CCCO5)CC4)c4ccccc43)n2)cn1			MIC	resazurin	18b+	Drug-resistant		1.56 µM
C#CCC(C)(O)/C=C/C1=C(C)CCCC1(C)C			MIC bound		H37Rv			>6.25 µg/mL
CCC(C)c1ccc(NC(=S)c2cc(Cl)ccc2O)cc1			MIC		My 331/88			1 µM
O=Cc1c(-c2ccccc2)nc2sc(C3CCCCC3)nn12			inhibition	BACTEC	H37Rv		6.25 µg/mL	<90%
COc1ccc(S(=O)(=O)NC(=S)S)cc1			MIC		KM-R			>12.8 µg/mL
COc1ccc(CC2NC(=O)[C@@H](CCCN)NC(=O)[C@H](CC(N)=O)NC(=O)[C@H](C(C)C)NC(=O)[C@@H](CC(C)C)NC(=O)[C@H](CC(C)C)NC2=O)cc1			MIC100	broth dilution / resazurin	H37Rv			>80 µM
Cc1ccc(NC(=O)c2cccc3nc4ccccc4nc23)cc1C			MIC		H37Rv 27294			0.39 µg/mL
Cc1ccc(C(=O)N/N=C/c2cc3cc(F)ccc3[nH]c2=O)cn1			MIC	resazurin / visual reading	H37Rv			50 µg/mL
OCc1c(-c2ccccc2)nc2sc(-c3ccco3)nn12			inhibition	BACTEC	H37Rv		6.25 µg/mL	<90%
COc1ccc2c(c1)Sc1c(ccc3ccccc13)N2CCCN(C)C			MIC bound	BACTEC	H37Rv			≤12.5 µg/mL
CO[C@H]1/C=C/O[C@@]2(C)Oc3c(C)c(O)c4c(O)c(c(/C=N/N5CCN(C)CC5)c(O)c4c3C2=O)NC(=O)/C(C)=C\C=C\[C@H](C)[C@H](O)[C@@H](C)[C@@H](O)[C@@H](C)[C@H](OC(C)=O)[C@@H]1C			MIC		H37Rv			>0.1 µg/mL
COc1ccc(N2CCN(Cc3c(C(C)=O)[n+](=O)c4cc(C)c(C)cc4n3[O-])CC2)cc1			EC50	BACTEC	H37Rv			>6.25 µg/mL
Cc1c(F)c(N2CCNC(C)C2)cc2c1c(=O)c(C(=O)O)cn2C1CC1			MIC		Clinical strain			0.5 µg/mL
C=CCNc1c(C)c2c3c4c1C(=O)C(=C(/C=N/N1CCN(C)CC1)C4O)NC(=O)/C(C)=C\C=C\[C@H](C)[C@H](O)[C@@H](C)[C@@H](O)[C@@H](C)[C@H](OC(C)=O)[C@H](C)[C@@H](OC)/C=C/O[C@@](C)(O2)C3=O			MIC90	low oxygen				>18.6 µM
Cc1cc2c(cc1C)[n+](=O)c(C(=O)c1ccccc1)c(C)n2[O-]			EC50	BACTEC	H37Rv			<6.25 µg/mL
Oc1ccc(Cl)cc1C(=S)Nc1cccc(F)c1			MIC		My 331/88			2 µM
CC(=O)c1c(CN2CCN(c3ccccc3C)CC2)n([O-])c2ccccc2[n+]1=O			EC50	BACTEC	H37Rv			>6.25 µg/mL
c1ccc(-c2nc3sc(-c4cccs4)nn3c2CN2CCCC2)cc1			inhibition	BACTEC	H37Rv		6.25 µg/mL	<90%
CCC(OC(=O)Nc1ccc(S(=O)(=O)NC2CCCCC2)cc1)c1ccco1			MIC bound	BACTEC	H37Rv			>12.5 µg/mL
NNC(=O)c1ccncc1			MIC		H37Rv 27294			0.19 µg/mL
O=C(Cc1ccccc1Nc1c(Cl)cccc1Cl)N/N=C/c1ccccc1Cl			MIC		H37Rv			3.6 µM
O=C(Nc1ccc(OC(F)(F)F)cc1)c1cccc2nc3ccccc3nc12			MIC		H37Rv 27294			0.39 µg/mL
COc1cc(/C=C/C=O)ccc1O			MIC		H37Rv (ATCC 27294)			64 µg/mL
COC(=O)n1c(=O)n(-c2ccccc2)c(=O)n1C(=O)OC			MIC bound	resazurin	H37Rv			>6.25 µg/mL
O/N=C/c1c(-c2ccccc2)nc2sc(C3CCCCC3)nn12			inhibition	BACTEC	H37Rv		6.25 µg/mL	<90%
Nc1ncnc2c1ncn2[C@@H]1O[C@H](COP(=O)([O-])CC(=O)c2ccccc2O)[C@@H](O)[C@H]1O			MIC					>100 µM
Oc1ccc(Cl)cc1C(=S)Nc1ccc(Cl)c(Cl)c1			MIC		My 331/88			2 µM
C=CCN(CC=C)C(=O)C1C2CC3OC(=O)C1C3C2			MIC bound	BACTEC	H37Rv			>12.5 µg/mL
CC[C@@H](C)[C@@H]1NC(=O)[C@@H](CC(C)C)NC(=O)[C@H](CC(C)C)NC(=O)[C@H](Cc2c[nH]c3ccccc23)NC(=O)[C@@H](CCCN)NC(=O)[C@H](CO)NC1=O			MIC100	broth dilution / resazurin	H37Rv			15 µM
C=CCN(CC=C)c1nc(C(N)=S)cnc1C(N)=O			MIC		H37Rv			25 µg/mL
CC(=O)c1c(C)n([O-])c2ccc(Cl)cc2[n+]1=O		VERO	inhibition	BACTEC	H37Rv		6.25 µg/mL	100%
CC(C)[C@@H]1C2[C@H](O)[C@@H]3[C@@H](C)CC[C@@H]4[C@@H](C)C[C@@H]1[C@]34C(=O)C2(C)C			EC50		H37Rv			>6.25 µg/mL
CC1=NN(C(=O)c2ccncc2)C(=O)C1N=Nc1ccc([N+](=O)[O-])cc1Cl		VERO	MIC	BACTEC	H37Rv			≥12.8 µg/mL
O=C(Nc1ccc(C(F)(F)F)cc1)c1cccc2nc3ccccc3nc12			MIC		H37Rv 27294			0.39 µg/mL
CC(C)C[C@@H]1NC(=O)[C@H](C)NC(=O)[C@@H](CCCN)NC(=O)[C@H](CC(N)=O)NC(=O)[C@H](C(C)C)NC(=O)[C@@H](CC(C)C)NC1=O			MIC100	broth dilution / resazurin	H37Rv			>80 µM
CC(=O)c1c(C)n([O-])c2ccc(C)cc2[n+]1=O		VERO	EC50	BACTEC	H37Rv			<6.25 µg/mL
CC(C)C[C@@H]1NC(=O)[C@H](Cc2c[nH]c3ccccc23)NC(=O)[C@@H](CCCN)NC(=O)[C@@H](CCCN)NC(=O)[C@H](C(C)C)NC(=O)[C@@H](CC(C)C)NC1=O			MIC100	broth dilution / resazurin	H37Rv			2.5 µM
CCn1cc(C(=O)O)c(=O)c2cc(F)c(N3CCN(C(=O)Cc4ccccc4Nc4c(Cl)cccc4Cl)C(C)C3)c(F)c21			MIC		H37Rv			0.32 µM
CC(=O)c1c(CN2CCN(c3ccc(Cl)cc3)CC2)n([O-])c2ccccc2[n+]1=O			EC50	BACTEC	H37Rv			>6.25 µg/mL
NC(=O)c1ncc(C(N)=S)nc1N1CCCC1			MIC		H37Rv			>100 µg/mL
CC1COc2c(N3CCN(C)CC3)c(F)cc3c(=O)c(C(=O)O)cn1c23			MIC	resazurin	18b+	Drug-resistant		0.14 µM
CC(=O)c1c(C)n([O-])c2cc(Cl)c(Cl)cc2[n+]1=O		VERO	inhibition	BACTEC	H37Rv		6.25 µg/mL	100%
CC[C@@H]1OC(=O)[C@H](C)[C@H](OC2CC(C)(OC)C(OC(=O)CCCC(=O)O)C(C)O2)[C@@H](C)[C@H](OC2OC(C)CC(N(C)C)C2O)[C@@](C)(O)C[C@H](C)C(=O)[C@@H](C)[C@H](O)[C@@]1(C)O			MIC	BACTEC	H37Rv			≥128 µg/mL
Nc1ncnc2c1ncn2[C@@H]1O[C@H](COS(=O)(=O)NC(=O)c2ccccc2O)[C@@H](O)[C@H]1O			MIC					0.29 µM
O=C(Nc1cccc(C(F)(F)F)c1)c1cccc2nc3ccccc3nc12			MIC		H37Rv 27294			0.78 µg/mL
Cc1nc(-c2nc(C)c(C(=O)NNC(=O)C[n+]3ccccc3)s2)sc1C(=O)NNC(=O)C[n+]1ccccc1.[Cl-]			MIC bound	BACTEC	H37Rv			>12.5 µg/mL
CC(C)CC1C(=O)N[C@H](CC(C)C)C(=O)N(C)C(C(C)C)C(=O)N[C@@H](CC(N)=O)C(=O)N[C@H](CCCN)C(=O)N[C@@H](Cc2c[nH]c3ccccc23)C(=O)N1C			MIC100	broth dilution / resazurin	H37Rv			>80 µM
O=C(CCSCCC(=O)N/N=C/c1ccc(F)cc1)N/N=C/c1ccc(F)cc1			inhibition	BACTEC	H37Rv		12.5 µg/mL	0%
CCCCc1ccc(NC(=S)c2cc(Cl)ccc2O)cc1			MIC		My 331/88			8 µM
CCCCN(CCCC)c1nc(C(N)=S)cnc1C(N)=O			MIC		H37Rv			100 µg/mL
Brc1ccc(-c2nc3sc(-c4ccco4)nn3c2CN2CCCCC2)cc1			inhibition	BACTEC	H37Rv		6.25 µg/mL	<90%
C=CCNc1c(C)c2c3c4c1C(=O)C(=C(/C=N/N1CCN(C)CC1)C4=O)NC(=O)/C(C)=C\C=C\[C@H](C)[C@H](O)[C@@H](C)[C@@H](O)[C@@H](C)[C@H](OC(C)=O)[C@H](C)[C@@H](OC)/C=C/O[C@@](C)(O2)C3=O			MIC90	resazurin				>4.7 µM
O=C(Cc1ccccc1Nc1c(Cl)cccc1Cl)N/N=C/c1ccc([N+](=O)[O-])cc1			MIC		H37Rv			1.76 µM
O=[n+]1c2ccccc2n([O-])c2cc(Br)ccc21		VERO	MIC		H37Rv			0.8 µg/mL
CC(C)C[C@@H]1NC(=O)[C@H](Cc2c[nH]c3ccccc23)NC(=O)[C@@H](CCCN)NC(=O)[C@H](CC(N)=O)NC(=O)[C@H](C)NC(=O)[C@@H](CC(C)C)NC1=O			MIC100	broth dilution / resazurin	H37Rv			>80 µM
COc1cc2c(c3c1OC(C)(C)C=C3)c(=O)c1ccoc1n2C			MIC bound		H37Rv			>6.25 µg/mL
O=C1Nc2ccccc2C12CCN(Cc1ccccc1)CC2			MIC	resazurin	H37Rv			>100 µM
C=C(C)[C@H]1CCC2C(=CC[C@@]3(C)C(C(C)CC/C=C(\C)C(=O)O)CC[C@]23C)[C@]1(C)CCC(=O)O			inhibition	BACTEC	H37Rv		12.5 µg/mL	15%
Nc1ncnc2c1ncn2[C@@H]1O[C@H](CNS(=O)(=O)C(F)(F)C(=O)c2ccccc2O)[C@@H](O)[C@H]1O			MIC					>100 µM
NNC(=O)c1ncn([C@@H]2O[C@H](CO)[C@@H](O)[C@H]2O)c1C(=O)NN			MIC	BACTEC	H37Rv			≥12.5 µg/mL
CNc1c(C)c2c3c4c1C(=O)C(=C(/C=N/N1CCN(C)CC1)C4O)NC(=O)/C(C)=C\C=C\[C@H](C)[C@H](O)[C@@H](C)[C@@H](O)[C@@H](C)[C@H](OC(C)=O)[C@H](C)[C@@H](OC)/C=C/O[C@@](C)(O2)C3=O			MIC90	low oxygen				>19.1 µM
CCOC(=O)c1c2c(n3ccccc13)C(=O)c1ccccc1C2=O			MIC bound	resazurin	H37Rv			<6.25 µg/mL
CC[C@@H](CO)NCCN[C@@H](CC)CO			MIC	resazurin	912253	Isoniazid-resistant		1.2 µM
O=C1C(=O)c2ccccc2C(O)=C1CC=C(Cl)Cl			inhibition	BACTEC	H37Rv		12.5 µg/mL	11%
CCN(CC)c1nc(C(N)=S)cnc1C(N)=O			MIC		H37Rv			50 µg/mL
COc1ccc(N=Cc2c(O)ccc3c2oc2cc(Cl)c(O)c(Cl)c23)cc1			MIC bound	BACTEC	H37Rv			>12.5 µg/mL
NC(=O)c1ncc(C(N)=S)nc1NC1CCCCCC1			MIC		H37Rv			>100 µg/mL
Nc1c2c(nn1-c1ccccc1)C(=O)N(CCc1ccccc1)C2			MIC bound	BACTEC	H37Rv			>12.8 µg/mL
COc1ccc2c(c1)[n+](=O)c(C(C)=O)c(C)n2[O-]	inside macrophages		MIC		H37Rv			1.56 µg/mL
Cc1ccc(S(=O)(=O)NC(=O)NNC(=O)C(=O)Nc2ccc(F)cc2)cc1			inhibition	BACTEC	H37Rv		12.5 µg/mL	-54%
CCCN(CCC)c1nc(C(N)=S)cnc1C(N)=O			MIC		H37Rv			25 µg/mL

Again, the opening 5 rows:

{"structure": "CCC(C)C1NC(=O)[C@H](CC(C)C)NC(=O)[C@H](Cc2c[nH]c3ccccc23)NC(=O)[C@@H](CCCN)NC(=O)[C@H](CC(N)=O)NC(=O)[C@H](C(C)C)NC1=O", "endpoint": "MIC100", "read by": "broth dilution / resazurin", "strain or isolate": "H37Rv", "value": ">80 µM"}
{"structure": "O=C(N/N=C/c1cc2cc(F)ccc2[nH]c1=O)c1cccnc1", "endpoint": "MIC", "read by": "resazurin / visual reading", "strain or isolate": "H37Rv", "value": "50 µg/mL"}
{"structure": "COc1ccc(-c2noc(C3=CC4(CCN(CC5CCCO5)CC4)c4ccccc43)n2)cc1", "endpoint": "MIC", "read by": "resazurin", "strain or isolate": "H37Rv", "value": "0.3 µM"}
{"structure": "CO/N=C(\\C)c1cccc(F)c1NS(=O)(=O)c1nc2c(F)cnc(OC)n2n1", "endpoint": "MIC50", "read by": "visual reading", "strain or isolate": "X59", "mutations": "INH RIF resistant", "value": "1 µM"}
{"structure": "C/C(=N\\NC(=S)N1CCN(C2CCCCC2)CC1)c1ccccn1", "endpoint": "inhibition", "read by": "BACTEC", "strain or isolate": "H37Rv", "dose": "12.5 µg/mL", "value": "99.7%"}